Taken from: PubChem BioAssay AID1259414 (Drosophila RNAi Screening Center, 2018)

Screen: 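Host factors increasing or decreasing Wolbachia levels in cultured fly cells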 (primary screen)
System: Drosophila JW18 cells infected with Wolbachia
Reagents: long dsRNA against Drosophila genes, 0.25 µg dsRNA per well of a 384-well plate
Time to read-out: 5 days
Treatment: cells persistently infected with Wolbachia before knock-down; no added drug
Measured: 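Imaged fluorescence in situ signal for Wolbachia 23S rRNA per DAPI-counted host cell, given as a robust z-score within each plate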
Reading the numbers: Wolbachia per cell robust z: higher = more Wolbachia per host cell than the plate typical
Active means: 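Hit when robust z is 1.5 or more, or -1.5 or less, in at least two of three replicates; excludes dsRNAs with several or no targets, genes not expressed in JW18 and well A1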
In all, the deposit lists about 24,000 reagents; this is an unselected part of those with a known target gene and a result. Over the whole deposit, about 1,210 (5%) are marked active. 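Inactive calls also include excluded dsRNAs with several or no targets, genes unexpressed in JW18, and well A1, regardless of score.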 Reagents against one gene are numbered here.

| Gene | reagent | Wolbachia per cell robust z, rep 1 | Wolbachia per cell robust z, rep 2 | Wolbachia per cell robust z, rep 3 | Call |
| --- | --- | --- | --- | --- | --- |
| TkR86C | 1 | -2.98 | 0.24 | -1.32 | inactive |
| CG11929 | 1 | -2.68 | 0.381 | 0.286 | inactive |
| CG4982 | 1 | -2.41 | -1.63 | -1.07 | inactive |
| Cbp80 | 1 | -0.543 | 0.0424 | -0.965 | inactive |
| CG6652 | 1 | -0.438 | 0.134 | -1.53 | inactive |
| CG6652 | 2 | 0.777 | -0.732 | -0.469 | inactive |
| CG5641 | 1 | -0.546 | -3.31 | 1.8 | inactive |
| arr | 1 | 0.109 | 0.00335 | 0.192 | inactive |
| arr | 2 | -0.308 | 0.384 | 0.0764 | inactive |
| Cyp6g2 | 1 | 1.53 | 1.05 | 0.79 | inactive |
| Cyp6g2 | 2 | -0.186 | 0.0196 | -3.52 | inactive |
| SelT | 1 | 0.833 | -7.07 | -0.714 | inactive |
| SelT | 2 | 0.547 | -0.102 | -0.583 | inactive |
| CG14270 | 1 | -2.3 | 0.189 | -2.49 | active |
| CG6843 | 1 | -0.876 | -3.97 | 0.0225 | inactive |
| CG6843 | 2 | -1.84 | 0.518 | -0.4 | inactive |
| CG8032 | 1 | 0.0791 | 0.834 | -1.87 | inactive |
| CG8032 | 2 | -0.462 | -0.131 | 0.114 | inactive |

Called active (from the list above):
| Gene | reagent | Wolbachia per cell robust z, rep 1 | Wolbachia per cell robust z, rep 2 | Wolbachia per cell robust z, rep 3 | Call |
| --- | --- | --- | --- | --- | --- |
| CG14270 | 1 | -2.3 | 0.189 | -2.49 | active |

The listing continues:
| Gene | reagent | Wolbachia per cell robust z, rep 1 | Wolbachia per cell robust z, rep 2 | Wolbachia per cell robust z, rep 3 | Call |
| --- | --- | --- | --- | --- | --- |
| Cpr76Bb | 1 | 0.0648 | -1.03 | -2.42 | inactive |
| Cpr76Bb | 2 | -1.62 | -2.09 | -0.465 | inactive |
| Cpr76Bb | 3 | 0.787 | 0.364 | 0.886 | inactive |
| ara | 1 | -0.303 | -5.05 | -5.62 | inactive |
| ara | 2 | 0.323 | -0.138 | 0.232 | inactive |
| CheA56a | 1 | -0.349 | -3.12 | -0.255 | inactive |
| pgc | 1 | -2.01 | -2.09 | -4.25 | inactive |
| Wdr59 | 1 | -1.3 | -1.02 | -0.281 | inactive |
| daw | 1 | -0.0698 | -0.574 | -0.533 | inactive |
| daw | 2 | 0.346 | -0.257 | -0.863 | inactive |
| daw | 3 | -3.49 | -0.165 | -5.32 | active |
| CG6340 | 1 | 0.459 | 1.15 | 0.115 | inactive |
| CG6340 | 2 | -3.32 | -1.99 | -1.82 | active |
| rdgA | 1 | -4.45 | -0.586 | -0.544 | inactive |
| rdgA | 2 | -3.26 | 0.365 | 0.219 | inactive |
| rdgA | 3 | 1.31 | 0.402 | -0.0565 | inactive |
| rdgA | 4 | -1.58 | -0.29 | -0.43 | inactive |
| rdgA | 5 | 0.0164 | 0.41 | 0.141 | inactive |
| rdgA | 6 | 0.924 | 0.135 | 0.816 | inactive |
| rdgA | 7 | -1.04 | 0.536 | -0.261 | inactive |
| Mical | 1 | 1.34 | -2.43 | 1.2 | inactive |
| Mical | 2 | 0.23 | -0.907 | -6.22 | inactive |
| Mical | 3 | 0.904 | 1.08 | 0.253 | inactive |
| Mical | 4 | -0.153 | -0.0049 | 0.335 | inactive |
| Set | 1 | -3.86 | -0.673 | -0.418 | inactive |
| CG43329 | 1 | 0.0158 | 0.346 | 0.705 | inactive |
| lncRNA:roX1 | 1 | -1.83 | -2.12 | -1.57 | active |
| Acox57D-p | 1 | 0.362 | -1.17 | 0.0252 | inactive |
